Measured values as given in patent US10106833B2, “Methods and compounds for identifying glycosyltransferase inhibitors” (priority 2012, dated 2018).

The chains behind the UniProt entries cited, without tags or fusion partners.
UniProt P02919, whole entry: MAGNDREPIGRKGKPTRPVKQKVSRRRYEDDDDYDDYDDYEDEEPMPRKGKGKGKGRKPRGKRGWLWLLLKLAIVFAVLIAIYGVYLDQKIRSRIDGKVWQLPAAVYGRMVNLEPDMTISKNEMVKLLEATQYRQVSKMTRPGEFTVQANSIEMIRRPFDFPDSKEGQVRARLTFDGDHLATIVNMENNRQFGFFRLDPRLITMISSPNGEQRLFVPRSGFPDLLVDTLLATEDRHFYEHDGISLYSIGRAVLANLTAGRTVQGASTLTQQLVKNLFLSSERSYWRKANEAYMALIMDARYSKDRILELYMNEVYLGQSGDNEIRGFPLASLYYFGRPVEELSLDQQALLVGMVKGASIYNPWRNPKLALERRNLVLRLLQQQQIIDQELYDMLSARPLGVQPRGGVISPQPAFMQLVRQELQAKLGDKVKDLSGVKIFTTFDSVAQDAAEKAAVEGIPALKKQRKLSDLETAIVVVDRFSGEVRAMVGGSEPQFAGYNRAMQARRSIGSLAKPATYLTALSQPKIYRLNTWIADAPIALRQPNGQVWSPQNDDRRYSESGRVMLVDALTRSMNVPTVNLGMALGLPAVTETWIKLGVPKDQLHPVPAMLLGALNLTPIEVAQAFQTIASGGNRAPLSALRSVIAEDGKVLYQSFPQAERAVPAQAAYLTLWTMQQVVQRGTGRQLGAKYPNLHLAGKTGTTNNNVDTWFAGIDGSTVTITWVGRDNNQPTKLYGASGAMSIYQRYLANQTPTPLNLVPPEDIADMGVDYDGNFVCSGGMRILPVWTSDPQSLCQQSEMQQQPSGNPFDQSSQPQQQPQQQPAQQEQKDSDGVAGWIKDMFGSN
UniProt Q93Q23, whole entry: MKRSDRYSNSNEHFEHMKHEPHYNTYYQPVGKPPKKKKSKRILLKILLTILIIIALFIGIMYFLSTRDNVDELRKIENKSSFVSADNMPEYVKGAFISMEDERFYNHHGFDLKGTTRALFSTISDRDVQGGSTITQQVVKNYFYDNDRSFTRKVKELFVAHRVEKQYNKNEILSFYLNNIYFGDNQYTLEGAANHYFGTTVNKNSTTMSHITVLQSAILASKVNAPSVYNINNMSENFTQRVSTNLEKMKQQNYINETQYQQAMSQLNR

Key:
E. coli PBP1b [1] = target: T1, E. coli PBP1b (Escherichia coli, UniProt P02919); assay: Enzyme titration with probe, fluorescence polarization (KD); conditions: read-out: KD of probe; 75 nM probe, 10 mM TRIS pH 8.0, 100 mM NaCl, 0.3% DMSO, 0 °C; tested form: NH4 salt
Protocol: (§1) Solution containing 10 mM TRIS (pH=8.0), 100 mM NaCl, 0.3% DMSO, 75 nM S16, and bacterial glycosyltransferase (E. coli PBP1b c=2.2 uM; E. faecalis PBP2a c=5.1 uM; S. aureus SgtB c=2.1 uM) were allowed to equilibrate for 30 min at 0° C. and then serially diluted (1/1 dilutions) into buffer containing 10 mM TRIS (pH=8.0), 100 mM NaCl, 0.3% DMSO, and 75 nM S16. After equilibration at 0° C. for 30 min the 20 μL of the solutions were transferred to a black 384 well plate (Corning NBS Low Volume) and fluorescence polarization (FP, ex: 480 nm; em: 535 nm) was measured using a Perkin Elmer Envision microplate reader. Each series was performed in duplicate and the data was plotted FP vs. concentration of enzyme. For determination of the KD, the average FP values were converted to fluorescence anisotropy and fitted to the standard equation describing an equilibrium L+E<->LE (L=ligand; E=enzyme; LE=ligand enzyme complex) using GraphPad Prism 5.0 (GraphPad Software, Inc.; La Jolla, Calif., USA). The KD values for probe S16 are: E. coli PBP1b: 0.15; E. faecalis PBP2a: 0.38; […]

E. faecalis PBP2a = assay: as above; assay type: binding; conditions: read-out: KD of probe; 75 nM probe, 10 mM TRIS pH 8.0, 100 mM NaCl, 0.3% DMSO, 0 °C; tested form: NH4 salt
Protocol: as §1

S. aureus SgtB [2] = target: T2, S. aureus SgtB (Staphylococcus aureus, UniProt Q93Q23); assay: as above; assay type: binding; conditions: read-out: KD of probe; 75 nM probe, 10 mM TRIS pH 8.0, 100 mM NaCl, 0.3% DMSO, 0 °C; tested form: NH4 salt
Protocol: as §1

E. coli PBP1b [3] = target: T1, E. coli PBP1b; assay: In vitro PGT inhibition, PG formation from 14C-lipid II; conditions: read-out: IC50 inhibition of PG formation, E. coli PBP1b 50 nM, lipid II 4 μM, tested form: NH4 salt
Protocol: (§2) A solutions of S. aureus SgtB (50 nM) in 12.5 mM HEPES (pH=7.5), 2 mM MnCl2, and 250 μM tween-80 (8 μL) were incubated with DMSO solutions containing the inhibitor of interest in different concentrations (1 μL) for 20 min. Then ^14C-labelled lipid II (1 μL, 40 μM, ^14C/^12C 1/3) was added and the polymerization reaction was allowed to proceed for 25 min at room temperature. The reaction was quenched with 10 μL of a solution of moenomycin (1 μM) in 10% triton-X reduced and the remaining lipid II was separated from peptidoglycan (PG) using paper strip chromatography (isobutyric acid/1M NH4OH 5/3). Using a scintillation counter the ratio of radioactivity in PG to total radioactivity was determined and plotted vs. inhibitor concentration. IC50s were determined using the curve fitting program GraphPad Prism 5.0 (GraphPad Software, Inc.; La Jolla, Calif., USA).
Solutions of the PGT (50 nM) in 50 mM HEPES (pH=7.5), 10 mM CaCl2, and […] PenG (8 μL) were incubated with DMSO solutions containing the inhibitor of interest in different concentrations (1 μL) for 20 min. Then ^14C-labelled lipid II (1 μL, 40 μM, ^14C/^12C 1/3) was added and the polymerization reaction was allowed to proceed for 25 min at room temperature. The reaction was quenched and processed as described above.

S. aureus SgtB [4] = assay: Fluorescence polarization probe competition (Ki); conditions: read-out: Ki (displacement of probe CMG121); probe CMG121 75 nM, S. aureus SgtB 0.2 μM; tested form: NH4 salt
Protocol: To equilibrated solutions containing 10 mM TRIS (pH=8.0), 100 mM NaCl, 75 nM S16, and bacterial glycosyltransferase (E. coli PBP1b c=0.1-0.15 uM; E. faecalis PBP2a c=0.38-0.46 uM; S. aureus SgtB c=0.2-0.25 uM) was added the test compound in DMSO or DMSO/H2O solutions (stock solutions were typically 2 mM) to obtain a final concentration of test compound of ca. 200 uM. These solutions were serially diluted (1/1 dilutions) into buffer containing 10 mM TRIS (pH=8.0), 100 mM NaCl, 75 nM Probe CMG121, and bacterial glycosyl transferase (E. coli PBP1b c=0.1-0.15 uM; E. faecalis PBP2a c=0.38-0.46 uM; S. aureus SgtB c=0.2-0.25 uM). After equilibration at 0° C. for 30 min the 20 μL of the solutions were transferred to a black 384 well plate (Corning NBS Low Volume) and fluorescence polarization (FP, ex: 480 nm; em: 535 nm) was measured using a Perkin Elmer Envision microplate reader. […]
A black 384 well plate (Corning NBS Low Volume No. 3820) was filled (10 μL per well) with an equilibrated solution containing 10 mM TRIS (pH=8.0), 100 mM NaCl, 75 nM disaccharide S15, and 1.0-1.5 μM S. aureus SgtB (depending on protein batch). […] The plate was incubated at 4° C. for 30 min and read with an Perkin Elmer EnVision microplate reader as described above. […]
For determination of the Ki, the average FP values were first converted to fluorescence anisotropy. […]

S. aureus SgtB [5] = target: T2, S. aureus SgtB; assay: In vitro PGT inhibition, PG formation from 14C-lipid II; assay type: biochemical; conditions: read-out: IC50 inhibition of PG formation; S. aureus SgtB 50 nM, lipid II 4 μM; tested form: NH4 salt
Protocol: as §2

[6] = system: bacterial glycosyltransferase (E. coli PBP1b; E. faecalis PBP2a; S. aureus SgtB); assay: Assay validation: displacement of probe compound from enzyme (fluorescence polarization); conditions: 75 nM probe S16; test compound up to ca. 200 uM; tested form: NH4 salt

Row | Structure (SMILES) | Kd (E. coli PBP1b [1]) | Kd (E. faecalis PBP2a) | Kd (S. aureus SgtB [2]) | IC50 (E. coli PBP1b [3]) | IC50 (E. coli PBP1b [3]; listed as CMG12) | Ki (S. aureus SgtB [4]) | IC50 (S. aureus SgtB [5]) | Displacement of the probe compound (change in fluorescence polarization) on addition of test compound [6]
1 | CCCCCCCCCCCCCCCCOC(COP(=O)(O)OC1OC(C(N)=O)C(O)C(OC(N)=O)C1OC1OC(CO)C(OC2OC(CO)C(O)C(O)C2NC(=O)Cn2cc(CNC(=O)c3ccc4c(c3)C(=O)OC43c4ccc(O)cc4Oc4cc(O)ccc43)nn2)C(O)C1NC(C)=O)C(=O)O (stereo not drawn) | 0.15 µM | 0.38 µM | 0.18 µM | 0.6 µM | 0.65 µM | – | – | –
2 | CCCCCCCCCCCCCCCCOC(COP(=O)(O)OC1OC(C(N)=O)C(O)C(OC(N)=O)C1OC1OC(CO)C(O)C(O)C1NC(C)=O)C(=O)O (stereo not drawn) | – | – | – | 1.5 µM and 1.54 µM | – | 3.17 µM | 0.048 µM | decrease in fluorescence polarization

Several values for one entry are separate records, joined by “and”; a condition that tells them apart may be missing. Equal values may be shown once. Read-outs that look alike come from different tables or passages of the source.
